Patent US6369101B1, “Therapeutic method to treat herpes virus infection” (Regents of the University of Minnesota, priority 1999, dated 2002)

Assays:
Format in all cases: cell-based
Conditions in all cases: CC50/EC50 ratio
Mouse Cytomegalovirus = assay: CPE inhibition in stationary cells (visual), MCMV in MEF cells
Human Cytomegalovirus = assay: CPE inhibition in stationary cells (visual), HCMV in HFF cells
Varicella-Zoster Virus = assay: CPE inhibition in stationary cells (visual), VZV in HFF cells

**Q.** For `Nc1nc(O)c2ncn(COC(CO)CO)c2n1` [Ganciclovir ®, Ganciclovir, reference compound], which SI (Mouse Cytomegalovirus) is on record?
**A.** Its SI is 111.1.

**Q.** What about the SI (Human Cytomegalovirus) of the same compound?
**A.** Its SI is over 1000.

**Q.** With `C[C@H]1[C@H](C)CC[C@]2(CO)CC[C@]3(C)C(=CC[C@@H]4[C@@]5(C)CC[C@H](O)C(C)(C)[C@@H]5CC[C@]43C)[C@H]12` [Uvaol] as the compound, how does the SI (Human Cytomegalovirus) read?
**A.** Its SI is 0.0.

**Q.** And the SI (Varicella-Zoster Virus)?
**A.** The SI was under 2.4.

**Q.** What does the source list for `C[C@@H]1O[C@@H](O[C@H]2[C@H](O[C@H]3CC[C@@]4(C)[C@@H](CC[C@]5(C)[C@@H]4CC=C4[C@@H]6CC(C)(C)CC[C@]6(C(=O)O)CC[C@]45C)[C@]3(C)CO)OC[C@H](O)[C@@H]2O)[C@H](O)[C@H](O)[C@H]1O` [Hederine hydrate, α-hederin hydrate]?
**A.** SI (Human Cytomegalovirus): <2.5; SI (Varicella-Zoster Virus): <2.9

**Q.** How did the SI (Human Cytomegalovirus) turn out when `C[C@H]1[C@H](C)CC[C@]2(C(=O)O)CC[C@]3(C)C(=CC[C@@H]4[C@@]5(C)CC[C@H](O)C(C)(C)[C@@H]5CC[C@]43C)[C@H]12` [Ursolic acid] was run?
**A.** Its SI is 0.0.

**Q.** Betulin succinate was tested. Which SI (Mouse Cytomegalovirus) did it give?
**A.** The SI was under 3.5.

**Q.** What about the SI (Human Cytomegalovirus) of the same compound?
**A.** Its SI is 24.8.

**Q.** And the SI (Varicella-Zoster Virus)?
**A.** The SI was under 3.4.

**Q.** How did the SI (Mouse Cytomegalovirus) turn out when `C=C(C)[C@@H]1CC[C@]2(CO)CC[C@]3(C)[C@H](CC[C@@H]4[C@@]5(C)CC[C@H](O)C(C)(C)[C@@H]5CC[C@]43C)[C@@H]12` [Betulin, lup-20(29)-ene-3β, 28-diol, reference compound] was run?
**A.** The SI was under 4.0.

**Q.** And the SI (Human Cytomegalovirus)?
**A.** Its SI is 4.9.

**Q.** What about the SI (Varicella-Zoster Virus) of the same compound?
**A.** Its SI is under 3.5.

**Q.** With `C=C(C)[C@@H]1CC[C@]2(COP(=O)(O)O)CC[C@]3(C)[C@H](CC[C@@H]4[C@@]5(C)CC[C@H](OP(=O)(O)O)C(C)(C)[C@@H]5CC[C@]43C)[C@@H]12` [Betulin diphosphate] as the compound, how does the SI (Varicella-Zoster Virus) read?
**A.** Its SI is 0.0.
